# Primary screen of a compound library

Data taken from ChEMBL document CHEMBL3988442, “University of Dundee, Small-Polar-MMV Screening Library” (2021).

A: 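Phenotypic screen: M. tuberculosis growth, cholesterol and DPPC medium, 4 days; the read-out is not stated. Tested at 500 µM. Higher reads as more growth inhibition (inferred: compounds with an IC50 in retests scored well above the rest). Of about 18,000 compounds tested this way, about 900 (5%) reached 50% or more in at least one test.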
B: 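Growth of Mycobacterium tuberculosis over 3 days (7H9 medium with glucose and tyloxapol); the read-out is not stated. Concentration: 500 µM. Higher reads as more growth inhibition (inferred: compounds with an IC50 in retests scored well above the rest). Of about 18,000 compounds tested this way, about 1,400 (7.9%) reached 50% or more in at least one test.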

The filed quantity is “Percent Effect” (%). The controls that fix the scale are not given in the record; negative values are as filed. The entries come from a sample that favours strong results. A dash means the value is not listed here; it may have been measured.

| # | compound | A | B |
|---|---|---|---|
| 1 | `COCCn1ccnc1CN1CCC(C#N)CC1` | - | -7.455 |
| 2 | `NCC(N)c1ccc2c(c1)OCCO2` (stereo not given) | 21.91 | 35.58 |
| 3 | `Nc1ccn(Cc2ccccc2)n1` | 19.05 | - |
| 4 | `COCCC(N)c1ccco1` (stereo not given) | - | -11.43 |
| 5 | `CNC(=O)CCCNCc1c(C)nn(C)c1OC` | - | 4.769 |
| 6 | `CN(Cc1ccc(Cl)s1)CC1CCS(=O)(=O)C1` (stereo not given) | 33.03 | - |
| 7 | `O=C(CN1CCS(=O)(=O)CC1)N1CCc2sccc2C1` | - | 8.931 |
| 8 | `COc1cc(C(=O)NC[C@@H](O)c2ccc(C)cc2)on1` | 61.93 | 66.41 |
| 9 | `Cc1cnc(C(=O)NCCSCc2ccco2)cn1` | - | 55.05 |
| 10 | `O=C(c1cn(C2CNC2)nn1)N1CCCC1` | -11.24 | - |
| 11 | `c1ccc(NCCN2CCOCC2)cc1` | 12.67 | - |
| 12 | `CC(=O)Nc1nc(C(=O)Nc2nccs2)cs1` | -2.485 | 11.66 |
| 13 | `CCC1c2cccn2CCN1C(=O)c1snnc1C` (stereo not given) | - | 22.8 |
| 14 | `CC(C)C(O)CCNC(=O)Cc1cccc(O)c1` (stereo not given) | - | 66.05 |
| 15 | `O=C(CNc1cncc(Br)c1)N1CCCCC1` | - | -11.14 |
| 16 | `Cn1ncc(Cl)c1C(=O)Nc1ccncc1` | 12.9 | - |
| 17 | `CCn1ncnc1CN1CCC(O)(c2ccccc2)C1` (stereo not given) | - | -5.707 |
| 18 | `CSCC(C)(O)CNC(=O)Nc1cc(C)on1` (stereo not given) | - | 0.7284 |
| 19 | `CC(C)(C)CC(=O)N1CCCCC1CN` (stereo not given) | 7.001 | -0.4258 |
| 20 | `N#Cc1cc(F)ccc1CN1CC[C@@H](O)C1` | -10.75 | - |
| 21 | `CCOC(=O)c1cnc(N2CCNCC2)s1` | 58.64 | 61.28 |
| 22 | `CNC(=O)CCC1CCCCN1` (stereo not given) | - | -2.327 |
| 23 | `C[C@@H](C#N)NC(=O)OC(C)(C)C` | 9.344 | - |
| 24 | `O=C(CNC(=O)N1CCC1)Nc1ccc(F)c(F)c1` | - | 30.41 |
| 25 | `NCC(=O)N1CCN(c2ccc(Cl)cc2)CC1` | -3.376 | - |
| 26 | `CN(C)C(=O)CNC(=O)c1cncc2ccccc12` | 3.482 | - |
| 27 | `NCc1noc(-c2cccs2)n1` | 17.7 | 19.49 |
| 28 | `CC[C@H](CO)NCc1ccccc1` | - | -4.665 |
| 29 | `Cc1cc(O)nc(N2CCCCC2)n1` | - | 4.171 |
| 30 | `Cc1nccc(C(C)N)n1` (stereo not given) | - | 6.857 |
| 31 | `CCN1CCCCC1C(=O)NCCc1ccco1` (stereo not given) | 4.965 | - |
| 32 | `CC1(C)NCCC1O` (stereo not given) | - | -0.2476 |
| 33 | `CC(C)(CC(N)=O)NC(=O)C1CC=CC1` | - | 2.618 |
| 34 | `OC1(c2c(F)cccc2F)CCNCC1` | - | 3.223 |
| 35 | `CCCSc1ccc(NC(=O)NCCN)cc1` | 62.7 | 76.87 |
| 36 | `NC1CCN(c2cccc(Br)c2)C1` (stereo not given) | -7.517 | 2.461 |
| 37 | `CC(N)c1nncn1C(C)C` (stereo not given) | - | 11.28 |
| 38 | `O=C(CCc1ccc(Cl)s1)NCC(O)C1CCOCC1` (stereo not given) | - | 25.85 |
| 39 | `CNS(=O)(=O)c1ccc(C(=O)N2CCOCC2)o1` | - | -24.09 |
| 40 | `CC(C)(CO)CNC(=O)c1c(O)cccc1F` | - | -4.2 |
| 41 | `COc1cc(CCN)ccc1F` | 17.81 | 36.81 |
| 42 | `O=C(CSc1ccccc1)NCCCN1CCOCC1` | - | -5.859 |
| 43 | `CN(C)C(=O)CNc1ccc(OC(F)F)c(Cl)c1` | - | -14.35 |
| 44 | `CC(C)c1nnc(CN2C[C@@H]3CCC[C@H](C2)C(=O)N3)o1` | -5.07 | - |
| 45 | `Cn1ccc(C(=O)N2CCCC2c2cccs2)cc1=O` (stereo not given) | - | -1.749 |
| 46 | `CC1CCN(CC(=O)NCC2CCCO2)CC1` (stereo not given) | - | 42.85 |
| 47 | `NC(=O)C1CN(C/C=C/c2ccc(F)cc2)CCO1` (stereo not given) | 33.3 | 44.99 |